Anti-infective test results gathered from many reports (values: NIAID ChemDB through PubChem).

Shared fields: whole-cell or culture tests; agent: Mycobacterium tuberculosis

Neighbouring rows are from separate reports. Blank or dashed fields: not listed here. MIC bound comes from a single tested concentration. Percent inhibition refers to the dose given; in toxicity tests it is the harm to the cells. MIC50, MIC90 and the like: level of inhibition, or share of isolates inhibited. ECn: concentration that inhibits the pathogen or its effect by n%.

SMILES,endpoint,cells,mutations,strain,method,dose,result
NC(=O)c1ccc[n+](CC(=O)Nc2ccccc2)c1.[Cl-],MIC,,,H37Rv,BACTEC,,≥12.5 µg/mL
CCC(=O)OC1=C(C(C)C)C(=O)C2=C(C1=O)[C@@]1(C)CCCC(C)(C)[C@@H]1[C@H](OC(=O)CC)C2OC(C)=O,MIC100,,,MDR,MTT,,6.25 µg/mL
CO[C@H]1/C=C/O[C@@]2(C)Oc3c(C)c(O)c4c(O)c(c(/C=N/N5CCN(C)CC5)c(O)c4c3C2=O)NC(=O)/C(C)=C\C=C\[C@H](C)[C@H](O)[C@@H](C)[C@@H](O)[C@@H](C)[C@H](OC(C)=O)[C@@H]1C,MIC99,,526Asp,,,,≥640 µg/mL
COC(=O)c1cc(C2CCCCC2)nc2c(C3CCCCC3)cccc12,inhibition,,,H37Rv,,6.25 µg/mL,44%
O=[N+]([O-])c1cn2c(n1)OC[C@@H](OCc1ccc(C#Cc3ccc(C(F)(F)F)cn3)cc1)C2,MIC90,,,,resazurin,,0.2 µM
O=c1ccn([C@@H]2O[C@H](CO)[C@@H](Br)[C@@H]2O)c(=O)[nH]1,inhibition,,,H37Ra,,24 µg/mL,100%
O=[N+]([O-])c1cn2c(n1)OC[C@@H](OCc1ccc(Oc3ccc(F)cc3)cc1)C2,MIC90,,,,low oxygen,,1 µM
O=c1nc(-c2cccnc2Cl)ss1,MIC90,,,H37Rv,broth dilution,,4 µg/mL
CC(C)=CCCC(=O)C(c1nc2nnc(N)n2[nH]c1=O)c1nc2nnc(N)n2[nH]c1=O,MIC bound,,,H37Rv,BACTEC,,>12.5 µg/mL
CN1CCN(c2cc3c(cc2F)c(=O)c(C(=O)O)cn3C2CC2)CC1c1ccccc1,MIC,,,ATCC35801,,,0.93 µM
N/C(=N\NC(CC(=O)c1cccc(Cl)c1)c1ccccn1)c1ccccn1,MIC,,,H37Rv,,,16 µg/mL
CC1(C)OCC2OC3(CO)NP(=O)(N(CCCl)CCCl)OC3C2O1,MIC bound,,,H37Rv,BACTEC,,>12.5 µg/mL
O=[N+]([O-])c1cn2c(n1)OC[C@@H](OCc1ccc(/C=C/c3ccc(C(F)(F)F)nc3)cc1)C2,MIC90,,,,low oxygen,,0.91 µM
CC(=O)Nc1ccc(S(=O)(=O)c2ccc(Nc3ccnc4ccc(Cl)cc34)cc2)cc1,MIC,,,Strain 2 (MDR),,,4 µg/mL
O=c1[nH]c(=O)n([C@H]2C[C@H](I)[C@@H](CO)O2)cc1F,inhibition,,,H37Ra,,32 µg/mL,100%
COC(=O)CCC1=CC(=O)C(OC)=CC1=O,MIC bound,,,H37Rv,BACTEC,,≤128 µg/mL
O=c1oc2ccc(Br)cc2c(=O)n1-c1ccccc1,MIC,,,H37Rv,,,12.3 µM
COc1ccc(CC2C3=C(CCCC3)CCN2c2cc3c(cc2[N+](=O)[O-])c(=O)c(C(=O)O)cn3-c2ccc(F)cc2F)cc1,MIC,,,ATCC35801,,,5.45 µM
CCC(C(N)=O)N1C(=O)C2C3CCC(O3)C2C1=O,MIC bound,,,H37Rv,BACTEC,,>12.5 µg/mL
O=c1oc(-c2ccc3ccccc3c2)ns1,MIC99,,,H37Rv,broth dilution,,32 µg/mL
CO[C@H]1/C=C/O[C@@]2(C)Oc3c(C)c(O)c4c(=O)c(c5oc6cc(N7CCN(CC(C)C)CC7)cc(=O)c6nc5c4c3=C2O)NC(=O)/C(C)=C\C=C\[C@H](C)[C@H](O)[C@@H](C)[C@@H](O)[C@@H](C)[C@H](OC(C)=O)[C@@H]1C,MIC,,,50 (rifampicin-resistant),,,0.125 µg/mL
COc1ccc(-n2cc([N+](=O)[O-])nc2C)cc1,MIC,,,H37Rv,,,>6.25 µg/mL
NC(=O)CN1CCCC[C@H]1[C@@H](O)c1cc(C(F)(F)F)nc2c(C(F)(F)F)cccc12,MIC,,,,,,>128 µM
Cc1cc(S(=O)(=O)O)c(NC(=O)C(=O)C2C=CCS2(=O)=O)cc1Cl,MIC bound,,,H37Rv,BACTEC,,>12.5 µg/mL
Cc1onc(-c2c(F)cccc2F)c1C(=O)N1CCN(c2cc3c(cc2F)c(=O)c(C(=O)O)cn3C2CC2)CC1,MIC,,,ATCC35801,,,5.67 µM
CC(C)C1=C(O)C2=C(C(=O)C1=O)[C@@]1(C)CCCC(C)(C)C1[C@H](O)[C@H]2O,MIC100,,,MDR,MTT,,12.5 µg/mL
O=c1nc(-c2ccccc2Cl)ss1,MIC90,,,H37Rv,broth dilution,,16 µg/mL
C=C1C(=O)[C@@]23C[C@@H]1C[C@H](O)[C@@H]2C1(CCC[C@@](C)(COC(C)=O)C1C=O)COC3=O,MIC,,,H37Rv,BACTEC,,≥12.5 µg/mL
FC(F)(F)c1cc(N2CCNCC2)c2cccc(C(F)(F)F)c2n1,MIC,,,,,,62 µM
CC(C)C1=C(O)C2=C(C(=O)C1=O)[C@@]1(C)CCCC(C)(C)C1C=C2,MIC100,,,H37Rv,MTT,,>25 µg/mL
COC(=O)c1ccc2c(C3CCCCC3)cccc2n1,inhibition,,,H37Rv,,6.25 µg/mL,43%
Nc1cccc(-c2cc(C(F)(F)F)nc3c(C(F)(F)F)cccc23)c1,MIC,,,,,,55 µM
COC(=O)c1cc(C2CCCCC2)nc2ccccc12,inhibition,,,H37Rv,,6.25 µg/mL,3%
Cc1onc(-c2c(F)cccc2F)c1C(=O)N1CCN(c2cc3c(cc2F)c(=O)c(C(=O)O)cn3-c2ccc(F)cc2F)CC1,MIC,,,ATCC35801,,,10.01 µM
COc1ccc(-n2c(=O)oc3ccccc3c2=O)cc1,MIC,,,H37Rv,,,111 µM
O=c1[nH]c(=O)n(COC(CO)CO)cc1I,EC50,,,H37Ra,,,>100 µg/mL
FC(F)(F)c1cc(-n2ccnc2)c2cccc(C(F)(F)F)c2n1,MIC,,,,,,118 µM
NC(=O)c1cnccn1,MIC,,,T494,,,>2048 µg/mL
CC(=O)Nc1ccc(S(=O)(=O)c2ccc(Nc3ccnc4ccc(C)cc34)cc2)cc1,MIC,,,Strain 2 (MDR),,,2 µg/mL
CN1CCN(c2cc3c(cc2F)c(=O)c(C(=O)O)cn3-c2ccc(F)cc2F)CC1c1ccccc1,MIC,,,ATCC35801,,,6.34 µM
N/C(=N\NC(CC(=O)c1ccc(-c2ccccc2)cc1)c1ccccn1)c1ccccn1,MIC,,,H37Rv,,,8 µg/mL
Cc1nc([N+](=O)[O-])cn1-c1ccc(Cl)cc1,inhibition,VERO,,H37Rv,,6.25 µg/mL,99%
CC1NOC(NS(=O)(=O)c2ccc(N=Nc3c(O)c(C(=O)O)cc4ccccc34)cc2)C1C,MIC bound,,,H37Rv,BACTEC,,>12.5 µg/mL
COc1ccccc1-c1cc(C(F)(F)F)nc2c(C(F)(F)F)cccc12,MIC,,,,,,>128 µM
Cc1ccc2c(n1)Nc1ncnc(N)c1S2,MIC bound,,,H37Rv,BACTEC,,>12.5 µg/mL
COc1ccc2nc(-c3ccccc3)cc(NNC(=O)c3ccncc3)c2c1,MIC,,,Strain 2 (MDR),,,10 µg/mL
O=C(O)c1cn(-c2ccc(F)cc2F)c2cc(N3CCN(Cc4ccc5c(c4)OCO5)CC3)c(F)cc2c1=O,MIC,,,ATCC35801,,,5.82 µM
COC(=O)Cc1cc(C2CCCCC2)nc2ccccc12,inhibition,,,H37Rv,,6.25 µg/mL,4%
C[C@@H]1CC[C@@]2(OC1)O[C@H]1C[C@H]3[C@@H]4CC=C5C[C@@H](O[C@@H]6O[C@H](CO)[C@@H](O[C@@H]7O[C@@H](C)[C@H](O[C@@H]8O[C@@H](C)[C@H](O)[C@@H](O)[C@H]8O)[C@@H](O)[C@H]7O)[C@H](O)[C@H]6O[C@@H]6O[C@@H](C)[C@H](O)[C@@H](O)[C@H]6O)CC[C@]5(C)[C@H]4CC[C@]3(C)[C@H]1[C@@H]2C,MIC bound,,,H37Rv,BACTEC,,>12.5 µg/mL
[N-]=[N+]=NC(CCl)c1cn(COCCO)c(=O)[nH]c1=O,EC50,,,H37Ra,,,10 µg/mL
N/C(=N\NC(CC(=O)c1ccccc1)c1ccncc1)c1ccccn1,MIC,,,H37Rv,,,8 µg/mL
O=c1oc2ccccc2c(=O)n1-c1ccc(Cl)c(Cl)c1,MIC,,,H37Rv,,,12.3 µM
O=[N+]([O-])c1cn2c(n1)OC[C@@H](OCc1ccc(Oc3ccc(C(F)(F)F)nc3)cn1)C2,MIC90,,,,low oxygen,,28 µM
Cc1cccc(N=NC2Sc3nc4ccccc4n3C2=O)c1,MIC bound,,,H37Rv,BACTEC,,>12.8 µg/mL
COc1ccc2nccc(Nc3ccc(S(=O)(=O)c4ccc(NC(C)=O)cc4)cc3)c2c1,MIC,,,Strain 2 (MDR),,,0.8 µg/mL
O=[N+]([O-])c1ccc(-n2cnc([N+](=O)[O-])n2)cc1,MIC,,,H37Rv,,,>6.25 µg/mL
CC(=O)n1cc2cc([N+](=O)[O-])ccc2n1,inhibition,,,H37Rv,BACTEC,6.25 µg/mL,0%
N/C(=N\NC(CC(=O)c1ccc(Cl)c(Cl)c1)c1ccncc1)c1ccccn1,MIC,,,H37Rv,,,2 µg/mL
COc1cccc2c(NC(=S)Nc3ccc(Cl)cc3)ccnc12,MIC,,,Strain 2 (MDR),,,>2 µg/mL
N/C(=N\NC(CC(=O)c1ccc(-c2ccccc2)cc1)c1cccnc1)c1ccccn1,MIC,,,H37Rv,,,32 µg/mL
O=C(O)c1cc(C2CCCCC2)nc2ccccc12,inhibition,,,H37Rv,,6.25 µg/mL,10%
CN(C)C(=S)SC1OC(CO)C(OC2OC(CO)C(O)C(O)C2O)C(O)C1O,MIC bound,,,H37Rv,BACTEC,,≤128 µg/mL
Cc1ccc(-n2c(=O)oc3ccccc3c2=O)cc1,MIC,,,H37Rv,,,111 µM
COc1cc(C(C2=C(O)c3ccccc3C(=O)C2=O)C2=C(O)c3ccccc3C(=O)C2=O)cc(Br)c1O,MIC bound,,,H37Rv,BACTEC,,>12.8 µg/mL
CCOC(=O)Cc1cc(C2CCCCC2)nc2ccccc12,inhibition,,,H37Rv,,6.25 µg/mL,47%
O=c1oc(-c2ccc([N+](=O)[O-])cc2Cl)ns1,MIC99,,,H37Rv,broth dilution,,32 µg/mL
Cc1cccc(C(=O)CC(N/N=C(\N)c2ccccn2)c2cccnc2)c1,MIC,,,H37Rv,,,2 µg/mL
CC(=O)O[C@H]1C2=C(C(=O)C(C(=O)Oc3ccc(Cl)cc3)=C(C(C)C)C2=O)[C@@]2(C)CCCC(C)(C)[C@@H]2C1C(=O)Oc1ccc(Cl)cc1,MIC100,,,H37Rv,MTT,,>25 µg/mL
O=C(Nc1ccc(Cl)cc1)Nc1nnc2nc(CC(=O)c3ccc4ccccc4c3)c(=O)[nH]n12,inhibition,,,H37Rv,BACTEC,12.5 µg/mL,52%
CC1CN(c2cc3c(cc2F)c(=O)c(C(=O)O)cn3C(C)(C)C)CC(C)O1,MIC,,,ATCC35801,,,16.6 µM
COC1OC(CO)C(O)C2NCSC12.Cl,MIC bound,,,H37Rv,BACTEC,,>12.5 µg/mL
CC[C@H]1OC(=O)[C@H](C)C(=O)[C@H](C)[C@@H](O[C@@H]2O[C@H](C)C[C@H](N(C)C)[C@H]2O)[C@](C)(OC)C[C@@H](C)C(=O)[C@H](C)[C@H]2N(NCCCc3ccnc4ccccc34)C(=O)O[C@]12C,MIC,,,H37Rv,,,10 µg/mL
N#Cc1nc2cc(Cl)ccc2nc1Cl,inhibition,,,H37Rv,,12.5 µg/mL,58%
Nc1c(N2CCCCC2)c(=O)nc2[nH]/c(=C/c3ccco3)c(=O)n12,inhibition,,,,BACTEC,0.5 µM,0%
[N-]=[N+]=NC(CI)c1cn(COCCO)c(=O)[nH]c1=O,EC50,,,H37Ra,,,10 µg/mL
O=c1oc2ccccc2c(=O)n1-c1ccc(Br)cc1,MIC,,,H37Rv,,,37 µM
CC(C)C1=C(O)C2=C(C(=O)C1=O)[C@@]1(C)CCCC(C)(C)C1C[C@H]2O,MIC100,,,H37Rv,MTT,,25 µg/mL
COc1ccc(OC)c2c(Cl)cc(NCCCN3CCN(CCCNc4cc(Cl)c5c(OC)ccc(OC)c5n4)CC3)nc12,MIC bound,,,H37Rv,BACTEC,,>12.5 µg/mL
O=c1[nH]c(=O)n(COCCO)cc1F,EC50,,,H37Ra,,,>100 µg/mL
Cc1cc(=O)[nH]c(O)c1C(=O)CC(=O)c1ccccc1,inhibition,,,H37Rv,,6.25 µg/mL,1%
CC(=O)O[C@H]1C2=C(C(=O)C(=O)C(C(C)C)=C2O)[C@@]2(C)CCCC(C)(C)[C@@H]2[C@@H]1O,MIC100,,,H37Rv,MTT,,25 µg/mL
CC=CCOc1cc(NC(=S)OC(C)C)ccc1Cl,inhibition,,,H37Rv,BACTEC,12.5 µg/mL,95%
N/C(=N\NC(CC(=O)c1ccc(Cl)cc1)c1ccccn1)c1ccccn1,MIC,,,H37Rv,,,4 µg/mL
N#Cc1nc2cc(C(F)(F)F)ccc2nc1N,inhibition,,,H37Rv,,12.5 µg/mL,68%

For reference, 8 entries again:

{"SMILES": "N/C(=N\\NC(CC(=O)c1ccccc1)c1ccncc1)c1ccccn1", "endpoint": "MIC", "strain": "H37Rv", "result": "8 µg/mL"}
{"SMILES": "[N-]=[N+]=NC(CI)c1cn(COCCO)c(=O)[nH]c1=O", "endpoint": "EC50", "strain": "H37Ra", "result": "10 µg/mL"}
{"SMILES": "N/C(=N\\NC(CC(=O)c1ccc(Cl)c(Cl)c1)c1ccncc1)c1ccccn1", "endpoint": "MIC", "strain": "H37Rv", "result": "2 µg/mL"}
{"SMILES": "O=c1ccn([C@@H]2O[C@H](CO)[C@@H](Br)[C@@H]2O)c(=O)[nH]1", "endpoint": "inhibition", "strain": "H37Ra", "dose": "24 µg/mL", "result": "100%"}
{"SMILES": "Cc1cc(S(=O)(=O)O)c(NC(=O)C(=O)C2C=CCS2(=O)=O)cc1Cl", "endpoint": "MIC bound", "strain": "H37Rv", "method": "BACTEC", "result": ">12.5 µg/mL"}
{"SMILES": "Cc1nc([N+](=O)[O-])cn1-c1ccc(Cl)cc1", "endpoint": "inhibition", "cells": "VERO", "strain": "H37Rv", "dose": "6.25 µg/mL", "result": "99%"}
{"SMILES": "COc1ccc(CC2C3=C(CCCC3)CCN2c2cc3c(cc2[N+](=O)[O-])c(=O)c(C(=O)O)cn3-c2ccc(F)cc2F)cc1", "endpoint": "MIC", "strain": "ATCC35801", "result": "5.45 µM"}
{"SMILES": "Nc1cccc(-c2cc(C(F)(F)F)nc3c(C(F)(F)F)cccc23)c1", "endpoint": "MIC", "result": "55 µM"}